The values that follow come from article PMC12476894, “Identification of α‑Azacyclic Acetamide-Based Inhibitors of P. falciparum Na^+ Pump (PfATP4) with Fast-Killing Asexual Blood-Stage Antimalarial Activity by Phenotypic Screening” (ACS Infectious Diseases, 2025).

In one assay the test system is Dd2^G358S (PfATP4^G358S). Briefly: Drug susceptibility assay for cross-resistance profiling (Fidock Lab), G358S. Format: cell-based, Plasmodium falciparum. The note with it: for EC50: Plasmodium falciparum, DD2.
Assay [1] deals with Pf3D7 trophozoite-stage parasites, cytosolic pH (pHcyt); cell-based assay for ATP4 inhibition. Briefly: P. falciparum cytosolic dose response pH assay (BCECF, with concanamycin A). Particulars: Pf3D7, CMA 50 nM.
Where [2] appears, read: SJ733-selected line, Table 3 data set, read-out: EC50, Dd2^G358S.
[3] abbreviates: Table S8 independent data set, read-out: EC50, Dd2G358S (Dd2-SJ16-D2).

Values joined by “and” are separate entries in the source; they are usually repeats but may differ in a detail not shown here. Equal values may be shown once. Read-outs that look alike come from different tables or passages of the source.

Turning to `Cc1ccnc(NC(=O)Cn2cccc2-c2nc(-c3ccccc3)cs2)c1` [compound 2, N-(4-methylpyridin-2-yl)-2-(2-(4-phenylthiazol-2-yl)-1H-pyrrol-1-yl)acetamide], in the assay with Dd2^G358S (PfATP4^G358S) (setting [2]), the EC50 (usually the midpoint of the concentration-response curve) was determined as 0.22 ± 0.018 µM.

Take `Cc1nn(CCNC(=O)Cn2c(C)c(C#N)c3ccccc32)c(C)c1Cl` [compound 3, N-(2-(4-chloro-3,5-dimethyl-1H-pyrazol-1-yl)ethyl)-2-(3-cyano-2-methyl-1H-indol-1-yl)acetamide]: the half-maximal effective concentration (EC50) in the assay on Dd2^G358S (PfATP4^G358S) (setting [2]) amounted to 1 ± 0.11 µM. For the same molecule, the “EC50 fold-change vs Dd2-B2, Dd2^G358S” value with Dd2^G358S (PfATP4^G358S) (Table 3 data set) came to 1.9 fold.

Consider `N#Cc1cc(NC(=O)[C@H]2c3ccccc3C(=O)N(CC(F)(F)F)[C@@H]2c2cccnc2)ccc1F` [SJ733], for which the EC50 with Dd2^G358S (PfATP4^G358S) (setting [3]) was 31 µM.

For the molecule `C[C@H]1Cc2c([nH]c3cc(Cl)c(F)cc23)[C@@]2(N1)C(=O)Nc1ccc(Cl)cc12` [KAE609, cipargamin, reference compound], the EC50 with Dd2^G358S (PfATP4^G358S) (setting [2]) was 0.755 ± 0.079 µM; in the assay with Dd2^G358S (PfATP4^G358S) (setting [3]) it was 1.5 µM. Besides, the “EC50 fold-change vs Dd2-B2, Dd2^G358S” value in the assay with Dd2^G358S (PfATP4^G358S) (Table 3 data set) is 600- to 700 fold and 580 fold. In addition, the “Fold change vs Dd2-B2, Dd2G358S” value with Dd2^G358S (PfATP4^G358S) (Table S8 independent data set) was 710 fold.

Consider `Cc1cc(Nc2ccc(S(F)(F)(F)(F)F)cc2)n2nc(C(C)(F)F)nc2n1` [DSM265, reference compound], for which the “effect on parasite cytosolic pH (pHcyt) in presence of CMA (in words)” value in assay [1] is reported as “did not lead to alkalinization of the parasite cytosol”.
